Results of single-concentration screens

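Phenotypic screen: M. tuberculosis growth, glucose 7H9 medium, 3 days; the read-out is not stated. Tested at 500 µM. Higher reads as more growth inhibition (inferred: compounds with an IC50 in retests scored well above the rest). Of about 18,000 compounds tested this way, about 1,400 (7.9%) reached 50% or more in at least one test.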

Results are given as percent effect. The record does not define 0% and 100%; most values in the screen are far below 50% and negative numbers occur (in some assays of this library far below -100). This is part of a subset picked to be rich in strong results.

SMILES	Percent Effect
Cc1ccn(CC(=O)N2CCC3(CCC3O)CC2)n1 (configuration not stated)	9.771%
O=C(COCC(=O)N1CCCCC1)Nc1ccccc1	13.11%
Cn1cnnc1CNC(=O)c1sccc1OC(F)F	3.002%
Cc1ncc(CN(C)CC(O)COCc2ccco2)s1 (configuration not stated)	44.35%
Cn1cncc1CCNC(=O)C1CCCCO1 (configuration not stated)	2.824%
COc1ccc(CC(=O)Nc2cnn(C)c2)cc1F	13.6%
CN1N=C(C(=O)NC2CCc3nccn3C2)CCC1=O (configuration not stated)	2.556%
COCCNC(=O)c1ccc(CN2CCCCC2)cc1	9.969%
CC(=O)N1CCCN(S(=O)(=O)c2cnn(C)c2)CC1	-5.24%
NC1CCN(C(=O)c2ccccc2Cl)C1 (configuration not stated)	2.775%
COCC(C)NC(=O)CNc1ccc(OC)c(Br)c1 (configuration not stated)	73.1%
COCCNC(=O)c1cc2cc(C)ccc2n1C	77.85%
CC(C(=O)NC1CC1)N1CCN(C)c2ccccc2C1 (configuration not stated)	54.58%
CN1CCN(C(=O)NCc2ccccc2)CC1	4.649%
CNC(=O)c1ccc(CN(C)CC2(C)COC2)cc1	15.51%
O=C(NCc1ccc2c(c1)OCO2)Nc1nccs1	60.03%
O=C(CCc1ccccc1)N1CCCNCC1	58.21%
CCC(=O)N1CCN(C(=O)C2CCCCN2CC)CC1 (configuration not stated)	6.83%
O=C1CCC(C(=O)NCCc2ccc(F)cc2)N1 (configuration not stated)	18.25%
CN(CCCC1CCCO1)C(=O)c1ccc(CO)cc1 (configuration not stated)	12.57%
CN(C)CCO[C@@H]1COCC[C@H]1NC1CSCCSC1	14.06%
CCN(CC)CCOC1CCNC1 (configuration not stated)	-11.82%
CNC(=O)C1CCCN1C(=O)C(C)(C)C (configuration not stated)	5.895%
CC(C)C(C)NC(=O)CNC(=O)C1CC1 (configuration not stated)	3.57%
CCCNC(=O)NC(=O)CNc1cc(F)ccc1F	13.16%
CCCS(=O)(=O)NCC(O)CN1CCCC1 (configuration not stated)	-0.8749%
CCNC1CCCc2cccnc21 (configuration not stated)	-1.045%
COc1ccccc1C(O)c1ccccn1 (configuration not stated)	13.16%
OCCOCCSc1n[nH]c(-c2cc(F)cc(F)c2)n1	51.14%
NC(=O)C1CCCN(CCc2ccccc2)C1 (configuration not stated)	85.82%
COC(=O)c1ccc(C)c(CO)c1	17.94%
Cc1ccc(CCNC(=O)NCc2cnn(C)c2)cn1	-2.192%
COCCN1CCCN(C(=O)C(C)(C)C)CC1=O	0.1134%
CCOC(=O)CCNC(=O)N1CCN(CC(C)C)CC1	12.44%
Cc1nsc(NC2CCN(C)C2=O)n1 (configuration not stated)	-6.222%
O=C([C@H]1CC[C@@H](O)CC1)N1CCC(c2nnc[nH]2)CC1	8.206%
CC(=O)N1CCC(CNC(C)Cn2cccn2)CC1 (configuration not stated)	-7.901%
CCOc1cc(C(=O)NCCCOC(C)C)ccn1	78.87%
C1CC(N2CCOCC2)CCN1	0.4783%
c1ccc2c(CC3COCCN3)c[nH]c2c1 (configuration not stated)	11.14%
NCc1ccc(-n2cc(Cl)cn2)cc1	0.591%
COC(=O)CCNC(=O)c1c(C)nn(C)c1C	1.64%
CNC(=O)CCNCc1ccc(Br)cc1	37.23%
CC(=O)N1CCCN(C(=O)C2CCN(C)C(=O)C2)CC1 (configuration not stated)	5.881%
CN1CCN(C(=O)c2cc(-c3cccs3)on2)CC1	59.55%
CN1CCCCC1C(=O)NCCOCc1ccccc1 (configuration not stated)	13.62%
O=C1CC(c2ccccc2)NCCN1 (configuration not stated)	-1.871%
CS(=O)(=O)Cc1ccccc1CN	0.9702%
CN(C(=O)CC(N)c1ccccc1)c1cccc(F)c1 (configuration not stated)	8.001%
NCc1cccc(S(=O)(=O)NCC(F)(F)F)c1	16.77%
CCC(C(N)=O)N1CCC(c2nncn2C)CC1 (configuration not stated)	3.037%
Cc1noc(C)c1CN1CCn2ccnc2C1	4.477%
CCCc1ccc(CN2C[C@H](OCC)[C@@H](O)C2)o1	71.11%
NCC1CCN(Cc2cc(=O)c3cc(F)ccc3[nH]2)C1 (configuration not stated)	47.81%
NCC(O)c1ccc(Cl)c(F)c1 (configuration not stated)	53.33%
CC(C)OCCN(CC(N)=O)C(C)C	9.129%
CN(CC(C)(CO)CO)c1ncc(Cl)cc1Cl	80.49%
C1CC(OC2CCOCC2)CCN1	1.967%
COCC1(C(=O)NCCCN(C)c2ccccc2)CC1	48.34%
Cc1cccc2nc(C(=O)NC(C)C)cn12	22.65%
C=C(C)CN1CCN(C(=O)N(C)C)CC1	-3.745%
CCn1cc(COC2CCNC2)cn1 (configuration not stated)	6.815%
CSc1cccc(CN(C)C(=O)CC2COCCN2)c1 (configuration not stated)	18.48%
Nc1nnc(SCC(=O)NCCOc2ccccc2)s1	8.457%
CN(C(=O)OC(C)(C)C)C1CCNC1 (configuration not stated)	12.36%
NCc1ccc(C(=O)NC2CC2)cc1	11.56%
N#Cc1ccc(S(=O)(=O)N2CCCC[C@@H]2CO)cc1	22.71%
Fc1cccnc1N1CCNCC1	16.02%
O=C(c1c[nH]c2ccccc12)N1CCCNCC1	8.71%

The last 7 entries again:

| SMILES | Percent Effect |
|---|---|
| `CSc1cccc(CN(C)C(=O)CC2COCCN2)c1` (configuration not stated) | 18.48% |
| `Nc1nnc(SCC(=O)NCCOc2ccccc2)s1` | 8.457% |
| `CN(C(=O)OC(C)(C)C)C1CCNC1` (configuration not stated) | 12.36% |
| `NCc1ccc(C(=O)NC2CC2)cc1` | 11.56% |
| `N#Cc1ccc(S(=O)(=O)N2CCCC[C@@H]2CO)cc1` | 22.71% |
| `Fc1cccnc1N1CCNCC1` | 16.02% |
| `O=C(c1c[nH]c2ccccc12)N1CCCNCC1` | 8.71% |

Data taken from ChEMBL document CHEMBL3988442, “University of Dundee, Small-Polar-MMV Screening Library” (2021).